Reference: patent publication US20220153786A1, “PEPTIDES FOR PREVENTING BIOFILM FORMATION” (priority 2019, published 2022)

Test system: S. epidermidis cultures
Assay: Confocal fluorescence microscopy (CFM) localisation of FITC-labelled peptide
Format: cell-based, Staphylococcus epidermidis
Settings: 10 μM FITC-labelled peptide, 1, 4 or 24 h

**Q.** “Capsicumicine-fluorescein isothiocyanate [capsicumicine-FITC]” was tested. Which “localisation of peptide (CFM)” value did it give?
**A.** stays associated with extracellular matrix components; also recorded: exclusively on the matrix

Entries after “also recorded” stand apart in the source; their conditions may differ.
